Compound potency records, mixed from different reports. Data source: NIAID ChemDB in PubChem.

All rows: tests on isolated targets; species: HIV-1; target: Protease

Conditions beyond the fields shown may differ between rows.

compound	read-out	method	conditions	mutations	result
CC(C)(C)OC(=O)N[C@@H](Cc1ccccc1)[C@H](O)CNC[C@@H](O)[C@H](Cc1ccccc1)NC(=O)OC(C)(C)CCCNC(=O)OCc1ccccc1	IC50	HPLC	pH 5.5		<10 µM
CCCNC(=O)NCCC(C)(C)CN(C[C@@H](O)[C@H](Cc1ccccc1)NC(=O)O[C@H]1CO[C@H]2OCC[C@H]21)S(=O)(=O)c1ccc2c(c1)OCO2	Ki	fluorescence			<0.001 µM
CC[C@H](C)[C@H](NC(=O)[C@@H]1CCCN1C(=O)[C@H](O)[C@H](Cc1ccccc1)NC(=O)[C@H](CO)NC(=O)CCc1ccccc1)C(=O)N[C@H](C(N)=O)C(C)C	IC50				>5 µM
CC(C)(CCCCNC(=O)c1ccc2c(c1)OCO2)CN(C[C@@H](O)[C@H](Cc1ccccc1)NC(=O)O[C@H]1CO[C@H]2OCC[C@H]21)S(=O)(=O)c1ccc2c(c1)OCO2	Ki	fluorescence			<0.001 µM
CC(C)[C@H](NC(=O)CNC(=O)OC(C)(C)C)C(=O)N[C@@H](Cc1ccccc1)[C@H](O)CNC[C@@H](O)[C@H](Cc1ccccc1)NC(=O)[C@@H](NC(=O)CNC(=O)OC(C)(C)C)C(C)C	IC50	HPLC	pH 5.5		<10 µM
CC(C)C[C@H](NC(=O)CCCCCCCCCCCCCCC(=O)N[C@@H](Cc1ccc(N)cc1)C(=O)N[C@@H](Cc1ccccc1)C(=O)O)C(=O)N[C@@H](CC(C)C)C(=O)N[C@@H](Cc1ccccc1)C(N)=O	IC50	HPLC			0.33 µM
COc1cc(CN2CCN(C[C@@H](O)[C@H](Cc3ccccc3)NC(=O)[C@@H](NC(=O)N(C)Cc3csc(C(C)C)n3)C(C)C)[C@H](C(=O)NC(C)(C)C)C2)ccc1O	IC50	substrate cleavage			<0.0005 µM
CC(C)(CCNC(=O)C1CCCC1)CN(C[C@@H](O)[C@H](Cc1ccccc1)NC(=O)O[C@H]1CO[C@H]2OCC[C@H]21)S(=O)(=O)c1ccc2c(c1)OCO2	Ki	fluorescence			<0.001 µM
CC(C)C[C@H](NC(=O)[C@@H](NC(=O)CCCCCCCCCCCCCCC(=O)N[C@@H](CC(N)=O)C(=O)N[C@@H](Cc1ccccc1)C(=O)O)C(C)O)C(=O)N[C@@H](Cc1ccc(Br)cc1)C(N)=O	IC50				3.6 µM
CC(C)[C@H](NC(=O)[C@@H]1CCCN1C(=O)[C@@H](O)[C@H](Cc1ccccc1)NC(=O)OC(C)(C)C)C(=O)NCC1CCCCC1	IC50				<1000 µM
CC(C)C[C@H](NC(=O)[C@H](Cc1ccccc1)NC(=O)CCCCCCCCCCCCCCC(=O)N[C@@H](CC(N)=O)C(=O)N[C@@H](Cc1ccccc1)C(=O)O)C(=O)N[C@@H](Cc1ccccc1)C(N)=O	IC50			PR-L10I K45R I54V L63P A71V V82T L90M I93L	~0.7 µM
CC(C)(CCCNC(=S)NCc1ccco1)CN(C[C@@H](O)[C@H](Cc1ccccc1)NC(=O)O[C@H]1CO[C@H]2OCC[C@H]21)S(=O)(=O)c1ccc2c(c1)OCO2	Ki	fluorescence			<0.001 µM
CC(C)c1nc(CN(C)C(=O)N[C@H](C(=O)N[C@@H](Cc2ccccc2)[C@H](O)CN(C(C)C)S(=O)(=O)c2ccc(N)cc2)C(C)C)cs1	IC50	substrate cleavage			<0.0005 µM
CC(C)C[C@H](NC(=O)CCCCCCCCCCCCCCC(=O)N[C@H](C(=O)N[C@@H](CC(C)C)C(=O)N[C@@H](Cc1ccccc1)C(N)=O)C(C)O)C(=O)N[C@@H](Cc1ccccc1)C(=O)O	Ki				0.84 µM
CC(C)(CCCCNS(=O)(=O)c1ccccc1)CN(C[C@@H](O)[C@H](Cc1ccccc1)NC(=O)O[C@H]1CO[C@H]2OCC[C@H]21)S(=O)(=O)c1ccc2c(c1)OCO2	Ki	fluorescence			<0.001 µM
COC1C[C@@H](C(=O)NC(C)(C)C)N(C(=O)[C@@H](O)[C@H](Cc2ccccc2)NC(=O)[C@H](CS(C)(=O)=O)NC(=O)COc2cccc3ccccc23)C1	IC50				>0.05 µM
CSC(=O)NCCCC(C)(C)CN(C[C@@H](O)[C@H](Cc1ccccc1)NC(=O)O[C@H]1CO[C@H]2OCC[C@H]21)S(=O)(=O)c1ccc2c(c1)OCO2	Ki	fluorescence			<0.001 µM
CC(C)[C@H](NC(=O)OCc1cncs1)C(=O)N[C@@H](Cc1ccccc1)[C@H](O)CN1CCN(Cc2cncs2)C[C@H]1C(=O)NC(C)(C)C	IC50	substrate cleavage			~0.0005 µM
COC(=O)NCCCC(C)(C)CN(C[C@@H](O)[C@H](Cc1ccccc1)NC(=O)O[C@H]1CO[C@H]2OCC[C@H]21)S(=O)(=O)c1cccc2c1OCO2	Ki	fluorescence			<0.001 µM
CC(C)C[C@H](NC(=O)[C@@H](NC(=O)CCCCCCCCCCCCCCC(=O)N[C@@H](CS(C)(=O)=O)C(=O)N[C@@H](Cc1ccccc1)C(=O)O)C(C)O)C(=O)N[C@@H](Cc1ccc(-c2ccccc2)cc1)C(N)=O	IC50	HPLC			0.51 µM
CC(C)(CCN=C(N)NC#N)CN(C[C@@H](O)[C@H](Cc1ccccc1)NC(=O)O[C@H]1CO[C@H]2OCC[C@H]21)S(=O)(=O)c1ccc2c(c1)OCO2	Ki	fluorescence			<0.001 µM
CC[C@H](C)[C@@H](NC(=O)[C@@H](C[C@H](O)[C@H](CC(C)C)NC(=O)[C@H](Cc1cnc[nH]1)NC(=O)[C@H](Cc1ccccc1)NC(=O)[C@@H]1CCCN1C(=O)[C@@H](N)Cc1cnc[nH]1)C(C)C)C(=O)N[C@@H](Cc1cnc[nH]1)C(=O)O	Ki	HPLC	pH 7.0		0.025 µM
CC(C)c1ccccc1Sc1c(O)cc(-c2ccc(OCc3cccnc3)cc2)oc1=O	Ki	HPLC	pH 4.7		0.029 µM
CC(C)C[C@H](NC(=O)[C@@H](NC(=O)CCCCCCCCCCCCCCC(=O)N[C@@H](CS(C)(=O)=O)C(=O)N[C@@H](Cc1ccccc1)C(=O)O)C(C)O)C(=O)N[C@H](C(N)=O)C1CCCCC1	IC50	HPLC			0.58 µM
CC(C)c1ccccc1Sc1c(O)cc(-c2ccc(OCC3CCCCC3)cc2)oc1=O	IC50	HPLC	pH 4.7		9.9 µM
CC(C)[C@H](NC(=O)N(C)Cc1cncs1)C(=O)N[C@@H](Cc1ccccc1)[C@H](O)CN1CCN(Cc2cncs2)C[C@H]1C(=O)NC(C)(C)C	IC50	substrate cleavage			~0.0005 µM
CC(C)c1ccccc1Sc1c(O)cc(-c2ccc(Oc3ccccc3)cc2)oc1=O	IC50	HPLC	pH 4.7		0.36 µM
CNC(=S)NCCCCC(C)(C)CN(C[C@@H](O)[C@H](Cc1ccccc1)NC(=O)O[C@H]1CO[C@H]2OCC[C@H]21)S(=O)(=O)c1ccc2c(c1)OCO2	Ki	fluorescence			<0.001 µM
CC(C)C[C@H](NC(=O)[C@@H](NC(=O)CCCCCCCCCCCCCCC(=O)N[C@@H](CC(N)=O)C(=O)N[C@@H](Cc1c[nH]c2ccccc12)C(=O)O)C(C)O)C(=O)N[C@@H](Cc1ccccc1)C(N)=O	IC50				5.6 µM
Cc1nc(COC(=O)N[C@H](C(=O)N[C@@H](Cc2ccccc2)[C@H](O)CN2CCN(Cc3ccc(F)cc3)C[C@H]2C(=O)NC(C)(C)C)C(C)C)cs1	IC50	substrate cleavage			0.0005 µM
CC(C)(CCCN=C(NC#N)Oc1ccccc1)CN(C[C@@H](O)[C@H](Cc1ccccc1)NC(=O)O[C@H]1CO[C@H]2OCC[C@H]21)S(=O)(=O)c1ccc2c(c1)OCO2	Ki	fluorescence			<0.001 µM
CC(C)C[C@H](NC(=O)[C@@H](NC(=O)CCCCCCCCCCCCCCC(=O)N[C@@H](CC(N)=O)C(=O)N[C@@H](CCc1ccccc1)C(=O)O)C(C)O)C(=O)N[C@H](C(N)=O)C1CCCCC1	IC50	HPLC			0.53 µM
CC(C)c1nc(COC(=O)N[C@H](C(=O)N[C@@H](Cc2ccccc2)[C@H](O)CN2CCN(Cc3cccc(O)c3)C[C@H]2C(=O)NC(C)(C)C)C(C)C)cs1	IC50	substrate cleavage			<0.0005 µM
CC(C)(CCCCN)CN(C[C@@H](O)[C@H](Cc1ccccc1)NC(=O)O[C@H]1CO[C@H]2OCC[C@H]21)S(=O)(=O)c1cccc2c1OCCO2	Ki	fluorescence			<0.001 µM
CC(C)(C)c1ccccc1Sc1c(O)cc(-c2ccc(OCc3cccnc3)cc2)oc1=O	IC50	HPLC	pH 4.7		0.025 µM
CC(C)C[C@H](NC(=O)[C@@H](NC(=O)CCCCCCCCCCCCCCC(=O)N[C@@H](CC(N)=O)C(=O)N[C@@H](Cc1cccc2ccccc12)C(=O)O)C(C)C)C(=O)N[C@@H](Cc1ccccc1)C(N)=O	IC50	HPLC			0.38 µM
CC(C)(C)NC(=O)[C@H]1N(C(=O)[C@@H](O)[C@H](Cc2ccccc2)NC(=O)[C@H](CC(N)=O)NC(=O)COc2cccc3cnccc23)CSC1(C)C	IC50				<0.05 µM
CC(C)[C@H](NC(=O)[C@@H](C)O)C(=O)N[C@@H](Cc1ccccc1)[C@H](O)CNC[C@@H](O)[C@H](Cc1ccccc1)NC(=O)OC(C)(C)C	IC50	HPLC	pH 5.5		<10 µM
CS(=O)(=O)C[C@H](NC(=O)COc1cccc2ccccc12)C(=O)N[C@@H](Cc1ccccc1)[C@H](O)C(=O)N1CSC[C@H]1C(=O)NC1CCC(O)CC1	IC50				<5 µM
COC(=O)CCC(=O)NCCCC(C)(C)CN(C[C@@H](O)[C@H](Cc1ccccc1)NC(=O)O[C@H]1CO[C@H]2OCC[C@H]21)S(=O)(=O)c1ccc2c(c1)OCO2	Ki	fluorescence			<0.001 µM
CC(C)(C)NC(=S)N[C@@H](Cc1ccccc1)[C@H](O)CNC[C@@H](O)[C@H](Cc1ccccc1)NC(=O)OC(C)(C)C	IC50	HPLC	pH 5.5		<10 µM
CC(O)[C@H](NC(=O)CCCCCCCCCCCCCCC(=O)N[C@@H](CS(C)(=O)=O)C(=O)N[C@@H](Cc1ccccc1)C(=O)O)C(=O)N[C@@H](CC1CCCCC1)C(=O)N[C@@H](Cc1ccccc1)C(N)=O	IC50	HPLC			0.84 µM
CC(C)(CCCN)CN(C[C@@H](O)[C@H](Cc1ccccc1)NC(=O)O[C@H]1CO[C@H]2OCC[C@H]21)S(=O)(=O)c1cccc2c1OCO2	Ki	fluorescence			<0.001 µM
CC(C)c1ccccc1Sc1c(O)cc(-c2ccc(OCc3ccccc3)cc2)oc1=O	IC50	HPLC	pH 4.7		0.2 µM
COC(=O)N[C@H](C(=O)N[C@@H](Cc1ccccc1)[C@H](O)CN(CC(C)(C)CCCCNS(C)(=O)=O)S(=O)(=O)c1ccc2c(c1)OCO2)C(C)(C)C	Ki	fluorescence			<0.001 µM
CC(C)c1nc(CN(C)C(=O)N[C@H](C(=O)N[C@@H](Cc2ccccc2)[C@H](O)CN2CCN(Cc3ccccc3)C[C@H]2C(=O)NC(C)(C)C)C(C)C)cs1	IC50	substrate cleavage			<0.0005 µM
CC(C)(CCCCCNS(C)(=O)=O)CN(C[C@@H](O)[C@H](Cc1ccccc1)NC(=O)O[C@H]1CO[C@H]2OCC[C@H]21)S(=O)(=O)c1ccc2c(c1)OCO2	Ki	fluorescence			<0.001 µM
CC(C)C[C@H](NC(=O)[C@@H](NC(=O)CCCCCCCCCCCCCCC(=O)N[C@@H](CC(N)=O)C(=O)N[C@@H](Cc1ccccc1)C(=O)O)C(C)O)C(=O)N[C@@H](Cc1ccc(-c2ccccc2)cc1)C(N)=O	Ki				0.228 µM
CC(C)(CCCNC(=O)NCc1ccccc1)CN(C[C@@H](O)[C@H](Cc1ccccc1)NC(=O)O[C@H]1CO[C@H]2OCC[C@H]21)S(=O)(=O)c1ccc2c(c1)OCO2	Ki	fluorescence			<0.001 µM
CC(O)[C@H](NC(=O)CCCCCCCCCCCCCCC(=O)N[C@@H](CC(N)=O)C(=O)N[C@@H](CCc1ccccc1)C(=O)O)C(=O)N[C@@H](CC1CCCCC1)C(=O)N[C@@H](Cc1ccccc1)C(N)=O	IC50	HPLC			0.77 µM
CC(C)CC(=O)NCCCCCC(C)(C)CN(C[C@@H](O)[C@H](Cc1ccccc1)NC(=O)O[C@H]1CO[C@H]2OCC[C@H]21)S(=O)(=O)c1ccc2c(c1)OCO2	Ki	fluorescence			<0.001 µM
CC(C)[C@H](NC(=O)[C@@H](NC(=O)CCCCCCCCCCCCCCC(=O)N[C@@H](CC(N)=O)C(=O)N[C@@H](Cc1ccccc1)C(=O)O)C(C)O)C(=O)N[C@@H](Cc1ccccc1)C(N)=O	IC50				2.9 µM
CCCCS(=O)(=O)NCCC(C)(C)CN(C[C@@H](O)[C@H](Cc1ccccc1)NC(=O)O[C@H]1CO[C@H]2OCC[C@H]21)S(=O)(=O)c1ccc2c(c1)OCO2	Ki	fluorescence			<0.001 µM
CC(C)(C)OC(=O)N[C@@H](Cc1ccccc1)C(=O)CN(Cc1ccccc1)CC(O)[C@H](Cc1ccccc1)NC(=O)OC(C)(C)C	IC50	HPLC	pH 5.5		>10 µM

Repeating the first 6 entries:

compound,read-out,method,conditions,mutations,result
CC(C)(C)OC(=O)N[C@@H](Cc1ccccc1)[C@H](O)CNC[C@@H](O)[C@H](Cc1ccccc1)NC(=O)OC(C)(C)CCCNC(=O)OCc1ccccc1,IC50,HPLC,pH 5.5,,<10 µM
CCCNC(=O)NCCC(C)(C)CN(C[C@@H](O)[C@H](Cc1ccccc1)NC(=O)O[C@H]1CO[C@H]2OCC[C@H]21)S(=O)(=O)c1ccc2c(c1)OCO2,Ki,fluorescence,,,<0.001 µM
CC[C@H](C)[C@H](NC(=O)[C@@H]1CCCN1C(=O)[C@H](O)[C@H](Cc1ccccc1)NC(=O)[C@H](CO)NC(=O)CCc1ccccc1)C(=O)N[C@H](C(N)=O)C(C)C,IC50,,,,>5 µM
CC(C)(CCCCNC(=O)c1ccc2c(c1)OCO2)CN(C[C@@H](O)[C@H](Cc1ccccc1)NC(=O)O[C@H]1CO[C@H]2OCC[C@H]21)S(=O)(=O)c1ccc2c(c1)OCO2,Ki,fluorescence,,,<0.001 µM
CC(C)[C@H](NC(=O)CNC(=O)OC(C)(C)C)C(=O)N[C@@H](Cc1ccccc1)[C@H](O)CNC[C@@H](O)[C@H](Cc1ccccc1)NC(=O)[C@@H](NC(=O)CNC(=O)OC(C)(C)C)C(C)C,IC50,HPLC,pH 5.5,,<10 µM
CC(C)C[C@H](NC(=O)CCCCCCCCCCCCCCC(=O)N[C@@H](Cc1ccc(N)cc1)C(=O)N[C@@H](Cc1ccccc1)C(=O)O)C(=O)N[C@@H](CC(C)C)C(=O)N[C@@H](Cc1ccccc1)C(N)=O,IC50,HPLC,,,0.33 µM

Blank or dashed fields: not listed here. ICn is the concentration giving n% inhibition.